Biological target: PfNapS mutant C154A, acrylodan-labelled (Plasmodium falciparum)
Experiment: other fluorescence titration

“histone H3 (from UniProt P68432 1-136) (natural protein)” was tested, and the change in the chromic shift relative to C47A was 2 times.

— PMC2873526
